Experimental data reported in PMC4560900, “High-throughput screening against thioredoxin glutathione reductase identifies novel inhibitors with potential therapeutic value for schistosomiasis” (Infectious Diseases of Poverty, 2015).

By UniProt entry, the sequences of proteins in these tests, tags left out. Residues count along the entry.
UniProt Q962Y6, 1-598: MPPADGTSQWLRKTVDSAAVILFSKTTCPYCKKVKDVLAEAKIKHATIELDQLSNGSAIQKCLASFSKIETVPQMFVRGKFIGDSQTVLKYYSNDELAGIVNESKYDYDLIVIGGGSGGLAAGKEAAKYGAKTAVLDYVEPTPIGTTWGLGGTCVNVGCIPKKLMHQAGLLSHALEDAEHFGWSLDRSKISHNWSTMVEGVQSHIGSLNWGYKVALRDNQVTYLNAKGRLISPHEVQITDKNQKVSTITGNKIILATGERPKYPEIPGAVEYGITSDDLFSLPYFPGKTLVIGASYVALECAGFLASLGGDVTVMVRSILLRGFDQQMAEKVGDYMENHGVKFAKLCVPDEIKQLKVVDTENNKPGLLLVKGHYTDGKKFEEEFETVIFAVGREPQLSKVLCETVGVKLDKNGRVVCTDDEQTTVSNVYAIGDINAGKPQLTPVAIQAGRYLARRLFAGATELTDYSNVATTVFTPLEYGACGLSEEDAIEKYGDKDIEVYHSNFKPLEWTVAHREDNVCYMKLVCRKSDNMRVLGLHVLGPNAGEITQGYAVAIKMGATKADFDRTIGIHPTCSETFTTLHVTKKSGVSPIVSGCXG

Assays:
[1] = target: Thioredoxin glutathione reductase from S. mansoni (SmTGR) (Schistosoma mansoni, UniProt Q962Y6); assay: Endpoint SmTGR fluorescence (ThioGlo) assay; format: biochemical; conditions: inhibition of SmTGR; for Efficacy (%): 30 μM naphthazarin defined as 100 % inhibition, means ± SEM; for IC50: means ± SEM of at least three independent experiments
[2] = tested on: larval worms (schistosomula); assay: Ex vivo cidal activity against cultured larval parasites (schistosomula); conditions: tested at 50, 25, 12.5, 6.25 and 3.125 μM, n.a. = no activity

| SMILES | Efficacy (%) [1] | IC50 [1] | Larva: lowest concentration resulting in 100 % larval death at 48 hours [2] | Efficacy (%) ([1]; tested form: bromide) | IC50 ([1]; tested form: bromide) |
| --- | --- | --- | --- | --- | --- |
| Cc1c(I)sc2[nH]c(=O)c(=O)[nH]c12 | 95.89 ± 4.91% | 0.004 µM | 50 µM |  |  |
| O=C(CCS(=O)(=O)c1ccc(Br)cc1)c1ccc(Cl)cc1 | 78.09 ± 2.19% | 8.64 µM |  |  |  |
| O=C1CC(N2CCCc3ccccc32)C(=O)N1c1cc(Cl)cc(Cl)c1 (centres unmarked) | 98.69 ± 1.42% | 2.98 µM |  |  |  |
| CS(=O)(=O)N=C1C(Cl)=C(Cl)C(=NS(C)(=O)=O)C(Cl)=C1Cl | 98.97 ± 0.87% | 6.08 µM |  |  |  |
| Cc1ccc(C(=O)/C=C/S(=O)(=O)c2cc(Cl)ccc2Cl)cc1 | 98.35 ± 1.32% | 0.612 µM | 25 µM |  |  |
| CC1([N+](=O)[O-])C(Br)=C(Br)C(=O)C(Br)=C1Br | 98.03 ± 1.12% | 2.6 µM | 12.5 µM |  |  |
| COCc1cc(C)nc(NN=Cc2cc(Br)cc(I)c2O)c1C#N | 97.86 ± 0.21% | 3.58 µM |  |  |  |
| CC(C)(C)C(=O)C(C#N)=C1Oc2ccc(O)cc2S1 | 99.21 ± 0.21% | 11.6 µM | 50 µM |  |  |
| CN(C)CCCNc1sc(Br)c([N+](=O)[O-])c1[N+](=O)[O-] | 85.95 ± 2.33% | 6.29 µM | 50 µM |  |  |
| COC(=O)c1ccccc1CC1=CC(=O)C=CC1=O | 96.87 ± 2.64% | 6.63 µM |  |  |  |
| CCC1COCCN1CCC(=O)c1ccc(N)cc1 (centres unmarked) | 96.60 ± 0.67% | 18.2 µM | 12.5 µM |  |  |
| O=C(/C=C/c1ccco1)c1c(-c2ccccc2)c2cc(Br)ccc2[nH]c1=O | 97.56 ± 2.98% | 2.89 µM | 50 µM |  |  |
| CCOc1ccccc1N1C(=O)C2C3C=CC(C3=C(c3ccccc3)c3ccccc3)C2C1=O (centres unmarked) | 98.99 ± 0.45% | 4.48 µM |  |  |  |
| O=C1c2ccc(S(=O)(=O)O)cc2-c2nc(-c3ccccc3)nc3ccc(Cl)c1c23 | 90.48 ± 1.06% | 4.4 µM |  |  |  |
| O=C1C(Cl)=C(Nc2ccc(S(=O)(=O)O)cc2)C(=O)c2ccccc21 | 97.22 ± 0.81% | 2.41 µM |  |  |  |
| CC12C=CC(C)(O1)C1C(=O)N(c3ccc(Br)cc3)C(=O)C12 (centres unmarked) | 98.57 ± 1.36% | 0.424 µM | 50 µM |  |  |
| CC(=O)C(=CNc1cc(C)c(O)c(Cl)c1)C(C)=O | 98.51 ± 1.39% | 7.87 µM |  |  |  |
| COc1ccc(S(=O)(=O)Oc2ccc3occ([N+](=O)[O-])c3c2)cc1 | 95.20 ± 2.54% | 7.17 µM |  |  |  |
| CSc1nnc(SC2=CC(=O)CC(c3ccccc3)C2)s1 (centres unmarked) | 94.49 ± 1.31% | 4.9 µM |  |  |  |
| Oc1ccc(C2CNCc3sccc32)c(Br)c1O (centres unmarked) | 77.47 ± 1.08% | 0.562 µM | 50 µM |  |  |
| COc1ccc(CCC(O)C2(O)CCCCC2)cc1 (centres unmarked) | 97.00 ± 1.41% | 1.58 µM |  |  |  |
| Cc1c(Br)c([N+](=O)[O-])c(C(=O)O)c([N+](=O)[O-])c1Br | 91.03 ± 0.45% | 3.26 µM | 25 µM |  |  |

| SMILES | Efficacy (%) [1] | IC50 [1] | Larva: lowest concentration resulting in 100 % larval death at 48 hours [2] | Efficacy (%) ([1]; tested form: bromide) | IC50 ([1]; tested form: bromide) |
| --- | --- | --- | --- | --- | --- |
| Cc1nsc(N)c1[N+](=O)[O-] | 96.77 ± 0.49% | 28.6 µM | 50 µM |  |  |
| O=c1c([N+](=O)[O-])c(Cl)c2ccccc2n1-c1ccccc1 | 72.99 ± 3.01% | 5 µM | 50 µM |  |  |
| COC(=O)c1ccc(S(=O)(=O)CCOC(=O)c2cccc(Cl)c2)nc1 | 77.53 ± 0.99% | 15.7 µM |  |  |  |
| S=c1[nH]cnc2nc[nH]c12 | 97.06 ± 1.17% | 3.29 µM |  |  |  |
| Clc1ccc(N2COc3ccc4ccccc4c3C2)cc1 | 97.19 ± 0.74% | 7.92 µM |  |  |  |
| Cc1ccc(S(=O)(=O)c2ccc([N+](=O)[O-])c[n+]2[O-])cc1 | 95.55 ± 2.02% | 0.862 µM | 3.125 µM |  |  |
| Cc1ccc(NC(=O)C2=C(c3ccccc3)S(=O)(=O)CCS2(=O)=O)cc1 | 93.88 ± 0.17% | 2.21 µM | 25 µM |  |  |
| Oc1c(Cl)c(Cl)c2c(c1Cl)CC(O)O2 (centres unmarked) | 98.70 ± 1.63% | 2.61 µM | 50 µM |  |  |
| O=C(NC1C(Cl)=C(Cl)C(=O)N1Cc1ccccc1)c1ccccc1 (centres unmarked) | 98.71 ± 0.83% | 3.06 µM |  |  |  |
| CC(C)(C)c1nnc(Sc2ncc([N+](=O)[O-])s2)[nH]1 | 95.73 ± 0.86% | 3.03 µM | 6.25 µM |  |  |
| O=C(Nc1ccccc1)Oc1c(Br)cc2oc(=O)sc2c1Br | 92.49 ± 1.05% | 12.8 µM |  |  |  |
| O=[N+]([O-])c1c(N2CCOCC2)cc(Cl)c2nonc12 | 95.77 ± 1.08% | 2.64 µM |  |  |  |
| O=C(O)COc1ccc(N2C(=O)C=CC2=O)cc1 | 97.34 ± 3.30% | 3.18 µM |  |  |  |
| COc1ccc(NC(=O)Oc2c(Br)cc3oc(=O)sc3c2Br)c(C)c1 | 77.86 ± 2.78% | 9.29 µM |  |  |  |
| NS(=O)(=O)c1ccc(S(=O)(=O)c2ccc([N+](=O)[O-])cn2)cc1 | 94.31 ± 1.53% | 1.61 µM |  |  |  |
| O=[N+]([O-])c1cc2c(cc1Cl)no[n+]2[O-] | 94.88 ± 1.48% | 13.1 µM | 12.5 µM |  |  |
| COC(=O)c1scc(C)c1N1C(=O)C=CC1=O | 98.65 ± 1.37% | 3.24 µM | 50 µM |  |  |
| O=c1c(Cl)c2oc3ccc(Cl)cc3nc-2c(Cl)c1Cl | 90.0 ± 1.379% | 14.8 µM | 12.5 µM |  |  |
| CC(=NN=C(NN=C(C)c1ccc(Br)cc1)NN=C(C)c1ccc(Br)cc1)c1ccc(Br)cc1 | 98.36 ± 1.29% | 0.205 µM |  |  |  |
| O=C1C(Cl)=C(Sc2n[nH]c(=O)[nH]c2=O)C(=O)N1Cc1ccccc1 | 95.92 ± 0.12% | 13.2 µM |  |  |  |
| CN1C(=O)C(=Cc2cc(Br)c(O)c([N+](=O)[O-])c2)C(=O)N(C)C1=O | 98.02 ± 1.44% | 0.831 µM |  |  |  |
| Cc1ccc(N2COc3ccc4ccccc4c3C2)cc1 | 92.95 ± 0.40% | 11.9 µM |  |  |  |

| SMILES | Efficacy (%) [1] | IC50 [1] | Larva: lowest concentration resulting in 100 % larval death at 48 hours [2] | Efficacy (%) ([1]; tested form: bromide) | IC50 ([1]; tested form: bromide) |
| --- | --- | --- | --- | --- | --- |
| O=[N+]([O-])c1cnc(Sc2nnc(O)n2C2CCCCC2)s1 | 98.23 ± 2.04% | 1.04 µM | 25 µM |  |  |
| O=[N+]([O-])c1sc2ccccc2c1-[n+]1ccccc1 |  |  |  | 94.87 ± 0.19% | 1.35 µM |
| N=C(N)SCCS(=O)(=O)Oc1ccc(Cl)cc1 | 95.62 ± 2.29% | 12 µM |  |  |  |
| O=C1C(Cl)=C(Nc2cccc(O)c2)C(=O)c2ccccc21 | 73.26 ± 1.61% | 2.6 µM | 6.25 µM |  |  |
| Cc1ccc(N2C(=O)C3C4C=CC(CO)(O4)C3C2=O)cc1Br (centres unmarked) | 99.60 ± 0.26% | 3.85 µM |  |  |  |
| O=C1C=CC(=O)N1c1ccccc1[N+](=O)[O-] | 99.41 ± 0.09% | 5.36 µM |  |  |  |
| Sc1nc2c(s1)-c1ccccc1CC2 | 96.74 ± 0.72% | 46.9 µM |  |  |  |
| Cc1ccc(C(=O)C(Br)=C2OC(=N)NC2=O)cc1 | 97.36 ± 1.75% | 2.86 µM | 50 µM |  |  |
| O=C1C=CC(=O)C(c2cccc(C(=O)O)c2)=C1 | 98.62 ± 1.50% | 5.59 µM |  |  |  |
| NS(=O)(=O)c1cc([N+](=O)[O-])c(Cl)s1 | 82.32 ± 1.51% | 3.35 µM | 6.25 µM |  |  |
| CN(C)CCC(=O)c1ccc2oc(=O)ccc2c1 | 98.78 ± 0.76% | 9.06 µM | 12.5 µM |  |  |
| O=[N+]([O-])c1sc2ccccc2c1Nc1nnn[nH]1 | 82.47 ± 1.70% | 14.5 µM | 50 µM |  |  |
| Cc1nn(-c2ccccc2)c(O)c1C=NNc1ccccc1 | 98.46 ± 1.61% | 2.12 µM | 50 µM |  |  |
| CS(=N)c1ncc(C(F)(F)F)cc1Cl (centres unmarked) | 73.87 ± 0.93% | 6.72 µM | 50 µM |  |  |
| COc1ccc(O)c(C(=O)C2c3ccccc3C(=O)N2c2ccc(C)cc2)c1 (centres unmarked) | 85.21 ± 2.02% | 1.94 µM |  |  |  |
| CN(C)CCC(=O)c1ccc(S(C)(=O)=O)cc1 | 98.88 ± 0.79% | 16.1 µM | 6.25 µM |  |  |
| O=[N+]([O-])c1c(Br)sc(NCc2ccccc2)c1[N+](=O)[O-] | 98.57 ± 0.63% | 7.24 µM | 50 µM |  |  |
| CS(=O)(=O)c1nsc(S(C)(=O)=O)c1C#N | 98.56 ± 1.56% | 3.55 µM |  |  |  |
| CN(C)CC1Oc2ccccc2OC1(O)c1ccccc1 (centres unmarked) | 98.44 ± 0.80% | 7.35 µM | 50 µM |  |  |
| CCCCCn1c(O)nnc1Sc1ncc([N+](=O)[O-])s1 | 97.51 ± 0.75% | 1.67 µM | 12.5 µM |  |  |
| Cc1cccc(NC(=O)Oc2c(Br)cc3oc(=O)sc3c2Br)c1 | 74.21 ± 1.41% | 13.1 µM |  |  |  |
| O=C(/C=C/Sc1nc[nH]n1)c1ccc(Cl)cc1 | 82.93 ± 1.20% | 7.66 µM | 3.125 µM |  |  |
